From article PMC9286511, “Global protein dynamics as communication sensors in peptide synthetase domains” (2022)

Target: cyclization domain Cy1 of HMWP2, wild type (Yersinia pestis)
Test: NMR titration

Substance “salicylate-loaded thiolation domain T1 of HMWP2 (domain or fragment)” has a population of the Cy1 minor conformer with loaded-T1 of 11%.
